Pooled drug test results. Numbers come from NIAID ChemDB, via PubChem.

Common to all: tests on isolated targets

Inhibition is in % at the dose shown (toxicity tests: loss of growth or viability). ICn is the concentration giving n% inhibition. Blank or dashed fields: not listed here. Fold resistance has wild type as its base. Lines come from different laboratories, so protocols vary.

structure	read by	strain or isolate	tested at	organism	protein	changes	endpoint	value
Cc1cn([C@@H]2O[C@H](CO[Si](C)(C)C(C)(C)C)[C@@]3(OS(=O)(=O)C=C3N)[C@H]2O[Si](C)(C)C(C)(C)C)c(=O)[nH]c1=O	nucleotide incorporation / radiometric	-	-	HIV	Reverse transcriptase	RT-N137H	fold resistance	0.69
O=c1cc(Cc2ccccc2)[nH]c(=S)[nH]1	-	RH	2000 µM	Toxoplasma gondii	Uracil phosphoribosyltransferase	-	inhibition	<5%
CCOc1ccc2ccccc2c1C(=O)Nc1nnc(NC[C@@H]2CCC3CC2C3(C)C)s1	-	-	-	Human cytomegalovirus	Polymerase	-	IC50	>25 µM
O=C(O)Cc1cc(=O)[nH]c(=O)[nH]1	-	RH	-	Toxoplasma gondii	Uracil phosphoribosyltransferase	-	IC50	>2000 µM
CC(C)C(=O)N1C[C@H](CN2CCC(c3ccccc3)CC2)[C@@H](c2ccccc2)C1	radiometric	-	-	-	CCR5	CCR5-D276A	fold resistance	2.92
Nc1ccnc(=S)[nH]1	-	RH	-	Toxoplasma gondii	Uracil phosphoribosyltransferase	-	IC50	>2000 µM
O=C(Nc1nnc(NCCc2cccs2)s1)c1cccc([N+](=O)[O-])c1	-	-	-	Human cytomegalovirus	Polymerase	-	IC50	>25 µM
Clc1cnccn1	-	RH	2000 µM	Toxoplasma gondii	Uracil phosphoribosyltransferase	-	inhibition	<10%
Cc1cnc2nc(N)nc(N)c2n1	-	RH	-	Toxoplasma gondii	DHFR	-	IC50	>20 µM
Nc1nc2c(ncn2[C@H]2CC[C@@H](COP(=O)(O)OP(=O)(O)OP(=O)(O)O)O2)c(=O)[nH]1	nucleotide incorporation / radiometric	-	-	HIV	Reverse transcriptase	RT-N137D	fold resistance	2.6
O=C(C1CCCCC1)N1C[C@H](CN2CCC(c3ccccc3)CC2)[C@@H](c2ccccc2)C1	radiometric	-	-	-	CCR5	CCR5-Y108A	IC50	0.97 µM
CCS(=O)(=O)c1ccc(N2C(N)=NC(N)=NC2(C)C)cc1	-	RH	-	Toxoplasma gondii	DHFR	-	IC50	8.9 µM
O=C(Nc1nnc(NCCC(c2ccccc2)c2ccccc2)s1)c1c(Cl)cccc1Cl	-	-	-	Human cytomegalovirus	Polymerase	-	IC50	<25 µM
O=C(c1ccccc1Cl)N1C[C@H](CN2CCC(O)(CCCc3ccc(-c4nn[nH]n4)cc3)CC2)[C@@H](c2ccccc2)C1	radiometric	-	-	-	CCR5	CCR5-Y37A	fold resistance	0.91
NC1C(=O)NC(=O)NC1=O	-	RH	-	Toxoplasma gondii	Uracil phosphoribosyltransferase	-	IC50	>2000 µM
CC[C@H]1C(=O)Nc2ccc(F)cc2N1C(=O)OC(C)C	nucleotide incorporation / radiometric	-	-	HIV	Reverse transcriptase	RT-N137E	fold resistance	1.2
COc1ccccc1C(=O)Nc1nnc(NCC(c2ccccc2)c2ccccc2)s1	-	-	-	Human cytomegalovirus	Polymerase	-	IC50	>25 µM
CC1(C)N=C(N)N=C(N)N1c1ccc(C(=O)Nc2ccc(S(=O)(=O)F)cc2)cc1	-	RH	-	Toxoplasma gondii	DHFR	-	IC50	>100 µM
Cc1c[nH]c(=S)[nH]c1=O	-	RH	-	Toxoplasma gondii	Uracil phosphoribosyltransferase	-	IC50	>2000 µM
CC1(C)N=C(N)N=C(N)N1c1ccc(OCC(=O)Nc2cccc(S(=O)(=O)F)c2)cc1	-	RH	-	Toxoplasma gondii	DHFR	-	IC50	0.026 µM
CCCc1c[nH]c(=O)[nH]c1=O	-	RH	-	Toxoplasma gondii	Uracil phosphoribosyltransferase	-	IC50	>2000 µM

The last 2 rows once more:

structure	read by	strain or isolate	tested at	organism	protein	changes	endpoint	value
CC1(C)N=C(N)N=C(N)N1c1ccc(OCC(=O)Nc2cccc(S(=O)(=O)F)c2)cc1	-	RH	-	Toxoplasma gondii	DHFR	-	IC50	0.026 µM
CCCc1c[nH]c(=O)[nH]c1=O	-	RH	-	Toxoplasma gondii	Uracil phosphoribosyltransferase	-	IC50	>2000 µM